According to US20040048237A1 (priority 2002, published 2004):

What was measured:
MoPrP cells = details: within 12 hrs of proteasome inhibitor (MG132) treatment
PrP = assay: Proteinase K digestion of cell lysates, immunoblot of 21 kDa PK-resistant PrPSc-like fragment; details: 16 hours

Molecule	cells died (MoPrP cells)	yield of 21 kDa PK-resistant band (PrP; 50 μM MG132 compared with 10 μM Lactacystin)	yield of 21 kDa PK-resistant fragment (PrP; 5 μM epoxomicin compared with 1 μM epoxomicin)
CC(C)C[C@@H](C=O)NC(=O)[C@H](CC(C)C)NC(=O)[C@H](CC(C)C)NC(=O)OCc1ccccc1 [MG132]	less than 5%	much more of the 21 kDa PK-resistant band	–
epoxomicin	–	–	much more of the 21 kDa PK-resistant fragment
